Target: T1, His6-SM-3FLAG (pET15b-SM-3FLAG) (Epstein-Barr virus)
T1 construct: also called recombinant SM; EB2; source: E. coli BL21-pLysS, partially purified (Ni-NTA)
Assay: pull-down
Conditions: both partners purified

B1: GST-SUMO1 (pGEX2T-SUMO1) (natural protein)
chain: not shown
notes: also called GST-tagged SUMO1; source: E. coli DH5alpha; in bacterial lysate (assay with BRLF1)
  binding result: binds

Reference: paper PMC6051671, “A genome-wide screen of Epstein-Barr virus proteins that modulate host SUMOylation identifies a SUMO E3 ligase conserved in herpesviruses” (PLoS Pathogens, 2018)
